Patent US12029748B2, “Synergistic composition for maintenance of healthy balance of microflora” (KIMBERLY-CLARK WORLDWIDE, INC., priority 2017, dated 2024)

Test system: L. crispatus and E. coli
Test: Therapeutic Effect Protocol: L. crispatus / E. coli co-culture, ratio after 36 hours
Type: cell-based, Lactobacillus crispatus; E. coli
Settings: pH of test solution 36 hours after inoculation; for F pH (final pH), 0.10%: nitrogen compound 0.10 wt/vol % with 1.0 wt/vol % α methyl-D glucoside; for F pH (final pH), 0.50%: nitrogen compound 0.50 wt/vol % with 1.0 wt/vol % α methyl-D glucoside; for F pH (final pH), 1.00%: nitrogen compound 1.00 wt/vol % with 1.0 wt/vol % α methyl-D glucoside
Protocol: As used herein the term “therapeutic effect” refers to the ability of the compositions and formulations of the present invention to stimulate the growth of Lactobacillus relative E. coli measured according to the Therapeutic Effect Protocol described below. Generally, therapeutic effect is expressed as a ratio of Lactobacillus to E. coli and is desirably greater than about 2, more preferably greater than about 20 and more desirably greater than about 100.
The data in Table 1 was tested according to the Therapeutic Effect Protocol as described further herein. The nitrogen compounds were tested for their therapeutic efficacy at three different concentrations when combined with α methyl-D glucoside (1% wt/vol %). The concentrations of the nitrogen containing compounds that were tested were 1% wt/vol %, 0.5% wt/vol %, and 0.1% wt/vol %.
Colonies of L. crispatus and E. coli were prepared as follows. A colony of L. crispatus was transferred to 7 ml de Man, Rogosa & Sharpe (MRS) broth and incubated anaerobically (using BD GasPak EZ anaerobe container system with indicator) at 37° C. without shaking for 18-20 hours. A colony of E. coli was transferred to 5 ml Tryptic Soy Broth (TSB) and incubated aerobically (shaking at 100 rpm) at 37° C. for 18-20 hours.
Colonies were then inoculated as follows. Bacterial cultures were gently vortexed and 1 mL of each culture was transferred to a corresponding 2.0 mL micro-centrifuge tube and then centrifuged for two minutes at 14,500 rpm. The cultural supernatant was removed and the cell pellet was re-suspended in 1 mL of 0.95% (wt/vol %) saline. […] For L. crispatus, the pellet was re-suspended in 1 mL of 0.95% saline to achieve ˜10^7-10^8 cfu/mL. For E. coli, the pellet was re-suspended in 1 mL of 0.95% saline to achieve ˜10^8-10^9 cfu/mL.
Media were prepared as follows.
All of the ingredients in Table 2 were combined and the pH was adjusted to 6.5. […] To evaluate the effect of various nitrogen containing therapeutic agents on the growth of bacteria, the LAPT-g media, prepared as described above, was supplemented with various nitrogen containing compound therapeutic agents to a final test concentration between 0.1 and 1.0%. As initial screening measures, solubility and initial pH of each composition were checked. If a specific composition was insoluble (as detected by visual indication of precipitates or turbidity), then no further therapeutic efficacy testing was undertaken on that composition. Additionally, if the initial pH of the composition was below 5.5 (“Low”) or was above 6.5 (“High”), then no further therapeutic efficacy testing was undertaken on that composition.
Five milliliters (5 mL) of each medium was transferred to a test tube in duplicates for subsequent inoculation. A master mixture of L. crispatus and E. coli, prepared as described above, was prepared in 1,000:1 ratio. Each (5 ml) test tube was inoculated with the master mixture to give 10^5-10^6 total CFU L. crispatus and 100-1,000 total CFU E. coli per tube.
To establish a negative control, one tube was vortexed and 100 μL was removed to determine the initial cell concentrations by serial dilutions and plating (2 plates per dilution). L. crispatus is selected on MRS agar plates incubated anaerobically at 37° C. for two days. E. coli is selected on TSA plates incubated aerobically at 37° C. for one day. The co-cultures were incubated in an anaerobic container with BD GasPaks at 37° C. for 36 hours.
The effect of the α methyl-D glucoside and the nitrogen containing compound therapeutic agents on the ratio of L. crispatus to E. coli was measured 36 hours after inoculation and a final pH of the test solutions was recorded. The co-culture tube was vortexed and 100 μL was removed to determine the final cell concentrations by serial dilutions and plating (2 plates per dilution). L. crispatus is selected on MRS agar plates incubated anaerobically at 37° C. for two days.

Row | Structure (SMILES) | F pH (final pH), 0.10% | F pH (final pH), 0.50% | F pH (final pH), 1.00%
1 | CCC(N)C(=O)O (racemic) [DL-a-amino-n-butyric acid] | 4.5 | 4.5 | 5.5
2 | Nc1ncnc2c1ncn2[C@@H]1O[C@H](CO)[C@@H](O)[C@H]1O [Adenosine] | 4 | 4.5 | 
3 | C[C@H](N)C(=O)N[C@@H](CC(=O)O)C(=O)O [Ala-Asp] (H-Ala-Asp-OH) | 4 |  | 
4 | C[C@H](N)C(=O)N[C@@H](CCC(=O)O)C(=O)O [Ala-Glu] (H-Ala-Glu-OH) | 3.5 |  | 
5 | C[C@H](N)C(=O)N[C@@H](Cc1cnc[nH]1)C(=O)O [Ala-His] (H-Ala-His-OH) | 4.5 | 4 | 
6 | NC(=O)NC1NC(=O)NC1=O (stereo not drawn) [Allantoin] | 4.5 | 4 | 
7 | Nc1ccn([C@@H]2O[C@H](CO)[C@@H](O)[C@H]2O)c(=O)n1 [Cytidine] | 4 | 4 | 5.5
8 | C[C@@H](N)C(=O)O [D-Alanine] | 3.5 | 4.5 | 4.5
9 | NC(=O)C[C@@H](N)C(=O)O [D-Asparagine] | 4 | 4 | 4.5
10 | Cl.N[C@H]1C(O)O[C@H](CO)[C@H](O)[C@@H]1O (stereo partly drawn) [D-Galactosamine HCL] | 3.5 | 4 | 4.5
11 | Cl.N[C@H]1C(O)O[C@H](CO)[C@@H](O)[C@@H]1O (stereo partly drawn) [D-Glucosamine HCL] | 3 | 4 | 3.5
12 | N[C@H](CCC(=O)O)C(=O)O [D-Glutamic Acid] | 4.5 |  | 
13 | NC(=O)[C@H]1O[C@@H](O)[C@H](O)[C@@H](O)[C@@H]1O [D-glucoronamide] | 4 | 4 | 4
14 | Cl.N[C@@H]1C(O)O[C@H](CO)[C@@H](O)[C@@H]1O (stereo partly drawn) [D-mannosamine HCl] | 5 | 5 | 5.5
15 | CC(O)C(N)=O (stereo not drawn) [DL Lactamide] | 4 | 4 | 4
16 | NCCCC(=O)O [DL-gamma-amino-n-butyric acid] | 4 | 3.5 | 4.5
17 | NCC(=O)N[C@@H](CC(N)=O)C(=O)O [Gly-Asn] (H-Gly-Asn-OH) | 4 | 4.5 | 4.5
18 | NCC(=O)N[C@@H](CCC(N)=O)C(=O)O.O [Gly-Gln] (H-Gly-Gln-OH) | 4 | 4.5 | 4.5
19 | NCC(=O)N[C@@H](CCC(=O)O)C(=O)O [Gly-Glu] (H-Gly-Glu-OH) | 3.5 |  | 
20 | CSCC[C@H](NC(=O)CN)C(=O)O [Gly-Met] | 3.5 | 4 | 4.5
21 | NCC(=O)O [Glycine] |  | 5 | 5
22 | C[C@H](N)C(=O)N[C@H](C(=O)O)[C@@H](C)O [H-Ala-Thr-OH] (H-Ala-Thr-OH) | 3.5 | 4 | 4.5
23 | OC[C@H]1O[C@@H](n2cnc3c(O)ncnc32)[C@H](O)[C@@H]1O [Inosine] | 3.5 | 4 | 4.5
24 | C[C@H](N)C(=O)O [L-Alanine] | 4.5 | 4.5 | 4.5

Row | Structure (SMILES) | F pH (final pH), 0.10% | F pH (final pH), 0.50% | F pH (final pH), 1.00%
25 | NC(=O)C[C@H](N)C(=O)O [L-Asparagine] | 4 | 4 | 
26 | N[C@@H](CC(=O)O)C(=O)O [L-Aspartic Acid] | 4.5 |  | 
27 | N[C@@H](CS)C(=O)O [L-Cysteine] | 4 | 4 | 4.5
28 | N[C@@H](CCC(=O)O)C(=O)O [L-Glutamic Acid] | 4.5 |  | 
29 | NC(=O)CC[C@H](N)C(=O)O [L-Glutamine] | 4 | 4.5 | 4.5
30 | N[C@@H](Cc1c[nH]cn1)C(=O)O [L-Histidine] | 4.5 |  | 
31 | N[C@@H](CCO)C(=O)O [L-Homoserine] | 4 | 5 | 5
32 | CC[C@H](C)[C@H](N)C(=O)O [L-Isoleucine] | 4.5 |  | 
33 | CC(C)C[C@H](N)C(=O)O [L-Leucine] | 4.5 | 4.5 | 
34 | CSCC[C@H](N)C(=O)O [L-Methionine] | 4.5 | 4 | 4.5
35 | Cl.NCCC[C@H](N)C(=O)O [L-Ornthine] | 4 | 4.5 | 4.5
36 | N[C@@H](Cc1ccccc1)C(=O)O [L-Phenylalanine] | 5 |  | 
37 | O=C(O)[C@@H]1CCCN1 [L-Proline] | 4 | 4.5 | 4.5
38 | N[C@@H](CO)C(=O)O [L-Serine] | 3.5 | 4 | 4.5
39 | C[C@@H](O)[C@H](N)C(=O)O [L-Threonine] | 4.5 | 4.4 | 5
40 | N[C@@H](Cc1ccc(O)cc1)C(=O)O [L-Tyrosine] | 4.5 |  | 
41 | CC(C)[C@H](N)C(=O)O [L-Valine] | 4.5 | 5 | 4.5
42 | CSCC[C@H](N)C(=O)N[C@@H](C)C(=O)O [Met-Ala] (H-Met-Ala-OH) | 4 |  | 
43 | CC(=O)N[C@H]1C(O)O[C@H](CO)[C@H](O)[C@@H]1O (stereo partly drawn) [N-Acetyl-D-Galactosamine] | 3.5 | 4.5 | 5.5
44 | CC(=O)N[C@H]1C(O)O[C@H](CO)[C@@H](O)[C@@H]1O (stereo partly drawn) [N-Acetyl-D-Glucosamine] | 3.5 | 3 | 3.5
45 | CC(=O)N[C@@H]1C(O)O[C@H](CO)[C@@H](O)[C@@H]1O (stereo partly drawn) [N-Acetyl-D-Mannosamine] | 5 | 5 | 5
46 | c1cncnc1 [Pyrimidine] | 3.5 | 4 | 4.5
47 | O=c1cc[nH]c(=O)[nH]1 [Uracil] | 4.5 |  | 

Where a SMILES comes first, the peptide text is derived from it.
